Measured values from several laboratories, pooled; numbers as filed in NIAID ChemDB.

All rows: growth or infection tests; organism: Aspergillus niger; endpoint: zone

Neighbouring rows are from separate reports. Blank or dashed fields: not listed here. Zone: diameter of growth inhibition.

| SMILES | strain or isolate | read by | tested at | value |
|---|---|---|---|---|
| Brc1ccc2c(c1)Sc1cccnc1N2CCCCCCN1c2ccc(Br)cc2Sc2cccnc21 | MTCC 282 |  | 100 µg/mL | 11 mm |
| CC(=NNC(=O)c1snnc1C(F)(F)F)c1ccc([N+](=O)[O-])cc1 | MTCC 1344 | agar diffusion / agar | 100 µg/mL | 0 mm |
| N#C/C(=C\c1ccc(Br)cc1)c1ccc([N+](=O)[O-])cc1 |  | agar diffusion | 100 µg | 0 mm |
| CC(=NNC(=O)c1snnc1C(F)(F)F)c1ccccn1 | MTCC 1344 | agar diffusion / agar | 100 µg/mL | 0 mm |
| CC1(C)C=C2C3CCC4[C@@]5(C)CC[C@H](OC(=O)/C=C/c6ccc(O)cc6)C(C)(C)C5CC[C@@]4(C)[C@]3(C)CC[C@@]2(C)CC1 | UPCC 3701 | agar diffusion | 30 mg/disc | 0 mm |
| N#Cc1ccc(Nc2nc(Oc3cccc4cccnc34)nc(N3CCOCC3)n2)cc1C(F)(F)F | MTCC 282 | agar diffusion / agar | 100 µg/disc | 26 mm |
| CCCC(=Nc1ccccc1N)c1c(C)[nH]n(-c2ccccc2)c1=O |  | agar diffusion / agar | 400 µg/mL | 5 mm |
| O=C1CCCC2=C1C(c1cccc(C3C4=C(CCCC4=O)OC4=C3C(=O)CCC4)c1)C1=C(CCCC1=O)O2 | ATCC 10949 | agar diffusion | 20 µg/mL | 0 mm |
| Cc1ccc(/C=C(\C#N)c2ccccc2)cc1 |  | agar diffusion | 100 µg | 0 mm |
| O=C(NN=Cc1ccc(F)cc1)c1snnc1C(F)(F)F | MTCC 1344 | agar diffusion / agar | 100 µg/mL | 0 mm |
| COc1ccc(/C=C(\C#N)c2ccccc2)cc1 |  | agar diffusion | 100 µg | 0 mm |
| O=C(NN=C1CCCCCC1)c1snnc1C(F)(F)F | MTCC 1344 | agar diffusion / agar | 150 µg/mL | 0 mm |
| CC(C)=CCC/C(C)=C/CC/C(C)=C/CC/C=C(/C)CC/C(C)=C\CO | ATCC 16404 | agar diffusion | 500 µg/mL | 13.4 mm |
| N#Cc1ccc(Nc2nc(Oc3ccnc4ccccc34)nc(N3CCN(c4ccccn4)CC3)n2)cc1C(F)(F)F | MTCC 282 | agar | 100 µg/mL | <10 mm |
| CC(C)c1ccc2c(c1)CC[C@H]1[C@](C)(CO)CCC[C@]21C | ATCC64958 | agar diffusion / agar | 100 µg/disc | 12 mm |
| COC1=CC(=O)C[C@@H](C)[C@]12Oc1c(Cl)c(OC)cc(OC)c1C2=O |  | agar diffusion / agar | 100 µg/mL | 9 mm |
| CN1CCN(c2nc(Nc3ccc(C#N)c(C(F)(F)F)c3)nc(Oc3ccnc4ccccc34)n2)CC1 | MTCC 282 | agar | 100 µg/mL | <10 mm |
| N#C/C(=C\c1ccc([N+](=O)[O-])cc1)c1ccc([N+](=O)[O-])cc1 |  | agar diffusion | 100 µg | 0 mm |
| CC(C)n1c(/C=C/C=Nn2cn[nH]c2=S)c(-c2ccc(F)cc2)c2ccccc21 |  |  | 100 µg/mL | 10 mm |
| N#Cc1ccc(Nc2nc(Oc3cccc4cccnc34)nc(N3CCN(c4cccc(Cl)c4Cl)CC3)n2)cc1C(F)(F)F | MTCC 282 | agar diffusion / agar | 100 µg/disc | 23 mm |
| Clc1ccc(COC(Cn2ccnc2)c2ccc(Cl)cc2Cl)c(Cl)c1 | MTCC 282 |  | 100 µg/mL | 18 mm |
| CC(=NNC(=O)c1snnc1C(F)(F)F)c1ccc(Br)cc1Br | MTCC 1344 | agar diffusion / agar | 100 µg/mL | 0 mm |
| CCCC(=Nc1cccc(N=C(CCC)c2c(C)[nH]n(-c3ccccc3)c2=O)c1)c1c(C)[nH]n(-c2ccccc2)c1=O |  | agar diffusion / agar | 400 µg/mL | 5 mm |
| CC(C)[C@@H](C)/C=C/[C@@H](C)[C@H]1CCC2C3=CC=C4CC(O)CC[C@]4(C)C3CC[C@@]21C | ATCC 16404 | agar diffusion | 500 µg/mL | 0 mm |
| CC1(C)C=C2C3CCC4[C@@]5(C)CC[C@H](OC(=O)/C=C/c6ccc(O)c(O)c6)C(C)(C)C5CC[C@@]4(C)[C@]3(C)CC[C@@]2(C)CC1 | UPCC 3701 | agar diffusion | 30 mg/disc | 0 mm |
| O=C1NC2(CO1)O/C(=C/c1ccc([N+](=O)[O-])cc1)C(=O)N2CCCNc1ccnc2cc(Cl)ccc12 |  | agar diffusion | 400 µg/mL | 51 mm |
| O=C(O)c1cc(O)c(O)c(O)c1 | ATCC64958 | agar diffusion / agar | 100 µg/disc | 28.9 mm |
| N#Cc1ccc(Nc2nc(Oc3cccc4cccnc34)nc(N3CCN(c4cccc(Cl)c4)CC3)n2)cc1C(F)(F)F | MTCC 282 | agar diffusion / agar | 100 µg/disc | 23 mm |
| CCN1CCN(c2nc(Nc3ccc(C#N)c(C(F)(F)F)c3)nc(Oc3ccnc4ccccc34)n2)CC1 | MTCC 282 | agar | 100 µg/mL | <10 mm |
| CC(C)N1CCN(c2nc(Nc3ccc(C#N)c(C(F)(F)F)c3)nc(Oc3cccc4cccnc34)n2)CC1 | MTCC 282 | agar diffusion / agar | 100 µg/disc | 21 mm |
| CC(=Nc1cccc2cccc(N=C(C)c3c(O)ccc4c(C)cc(=O)oc34)c12)c1c(O)ccc2c(C)cc(=O)oc12 | MTCC 1881 |  | 500 µg/mL | 18 mm |
| COc1cc(-c2oc3cc(O)cc(O)c3c(=O)c2O)ccc1O | ATCC64958 | agar diffusion / agar | 100 µg/disc | 15.5 mm |
| COc1cc2c(cc1-c1cc(-c3ccc([N+](=O)[O-])cc3)nc(N)n1)CCC(C)(C)O2 |  | agar diffusion | 100 µg/mL | 22 mm |
| Fc1ccc2c(c1)Sc1cccnc1N2CCCCCCN1c2ccc(F)cc2Sc2cccnc21 | MTCC 282 |  | 100 µg/mL | 10 mm |
| COc1cc2c(cc1-c1cc(-c3ccc(N(C)C)cc3)nc(N)n1)CCC(C)(C)O2 |  | agar diffusion | 100 µg/mL | 15 mm |
| O=C(NN=C1CCCCC1)c1snnc1C(F)(F)F | MTCC 1344 | agar diffusion / agar | 150 µg/mL | 0 mm |
| COc1ccc(OC)c(-c2cc(-c3cc4c(cc3OC)OC(C)(C)CC4)nc(N)n2)c1 |  | agar diffusion | 100 µg/mL | 16 mm |
| CCCC(=Nc1cccc(N)c1C)c1c(C)[nH]n(-c2ccccc2)c1=O |  | agar diffusion / agar | 400 µg/mL | 5 mm |
| N=C1OCC(=O)N1CCCNc1ccnc2cc(Cl)ccc12 |  | agar diffusion | 400 µg/mL | 54 mm |
| COc1ccc(-c2cc(-c3cc4c(cc3OC)OC(C)(C)CC4)nc(N)n2)cc1 |  | agar diffusion | 100 µg/mL | 15 mm |
| CC(=O)N1CCN(c2nc(Nc3ccc(C#N)c(C(F)(F)F)c3)nc(Oc3cccc4cccnc34)n2)CC1 | MTCC 282 | agar diffusion / agar | 100 µg/disc | 24 mm |
| Cc1ccc(/C=C(\C#N)c2ccc([N+](=O)[O-])cc2)cc1 |  | agar diffusion | 100 µg | 0 mm |
| O=C(NN=Cc1ccc(Br)cc1)c1snnc1C(F)(F)F | MTCC 1344 | agar diffusion / agar | 150 µg/mL | 0 mm |
| CC(=Nc1ccccc1N)c1c(C)[nH]n(-c2ccccc2)c1=O |  | agar diffusion / agar | 400 µg/mL | 6 mm |
| CN(C)c1ccc(/C=C(\C#N)c2ccccc2)cc1 |  | agar diffusion | 100 µg | 0 mm |
| CC[C@H](CC[C@@H](C)[C@H]1CCC2C3CC=C4CC(CC(=O)O)CC[C@]4(C)C3CC[C@@]21C)C(C)C | ATCC 16404 | agar diffusion | 500 µg/mL | 0 mm |

A second listing of 2 rows from above:

SMILES,strain or isolate,read by,tested at,value
COc1cc2c(cc1-c1cc(-c3ccc([N+](=O)[O-])cc3)nc(N)n1)CCC(C)(C)O2,,agar diffusion,100 µg/mL,22 mm
N#Cc1ccc(Nc2nc(Oc3ccnc4ccccc34)nc(N3CCN(c4ccccn4)CC3)n2)cc1C(F)(F)F,MTCC 282,agar,100 µg/mL,<10 mm